Measured data: PubChem BioAssay AID504761 (Drosophila RNAi Screening Center, 2011)

Aim: 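Fly genes whose silencing reduces dengue virus type 2 infection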 (primary screen)
Cell system: D.Mel-2 cells from Drosophila
Knock-down reagent: long dsRNA against Drosophila genes
Conditions: infection with dengue virus type 2; dose and infection time not stated
Measurement: 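Cells stained for dengue envelope protein and imaged; percent of infected cells per well on duplicate plates, ranked by infection, with stained nuclei counted for cell number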
Reading the numbers: infection score: higher = more virus-infected cells
Rule for the call: 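Very low infection ranking in both replicate wells (chance probability at most 0.065), then a retest showing infection dropped 1.5-fold or more at p below 0.05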
Meaning of the calls: active = confirmed: knock-down lowers infection; inactive = not picked or not confirmed
The deposit covers about 22,000 reagents; shown is an unselected part of those that have a named target and a result. In the full data, 116 (0.52%) are marked active. 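Calls depend on retest data that are not deposited; infection was ranked per plate without normalising between plates; the unit of the infection score is not given.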 Entries without a mark were called inactive. Further read-outs or replicates are left out here. The record does not give: the amount of reagent, the time to read-out.

Slc25A46a [DRSC20125] scored infection score, replicate 1 = 2.54.
mura (murashka) [DRSC23145] gave infection score, replicate 1 = 1.53.
After knock-down of mura (murashka) [DRSC26645] the results were infection score, replicate 1 = 1.46.
CG13069 [DRSC09952] scored infection score, replicate 1 = 0.93.
With knock-down of CG9083 [DRSC04625] the results were infection score, replicate 1 = 23.
CG9083 [DRSC25523] gave infection score, replicate 1 = 2.64.
With knock-down of CG13248 [DRSC11696], the screen gave infection score, replicate 1 = 3.88.
Knock-down of CG13248 [DRSC24446] gave: infection score, replicate 1 = 2.93.
With knock-down of Nhe3 (Na[+]/H[+] hydrogen exchanger 3) [DRSC03380], the record shows infection score, replicate 1 = 3.68.
RabGGTb (Rab geranylgeranyltransferase subunit beta) [DRSC00804] scored infection score, replicate 1 = 3.69.
After knock-down of RabGGTb (Rab geranylgeranyltransferase subunit beta) [DRSC29549], the record shows infection score, replicate 1 = 18.
comm (commissureless) [DRSC11336] scored infection score, replicate 1 = 0.45.
Silencing of comm (commissureless) [DRSC24259] resulted in: infection score, replicate 1 = 1.71.
